Pooled drug test results. Numbers come from NIAID ChemDB, via PubChem.

Shared fields: growth or infection tests; agent: Herpes simplex virus 2; read by: cytopathic effect; measure: EC50

Rows are shuffled and stem from different studies.

smiles,strain or isolate,cell line,result
[N-]=[N+]=NCc1cn([C@H]2C[C@H](O)[C@@H](CO)O2)c(=O)[nH]c1=O,VCX304,PRK,7 µg/mL
Cc1c(-c2ccc(F)cc2)[nH]c2nc3c(ncn3COCCO)c(=O)n12,196,HEL,1.92 µg/mL
O=[N+]([O-])c1cc([C@H]2C[C@H](O)[C@@H](CO)O2)c(F)cc1F,G,E6SM,>400 µg/mL
O=Cc1cn([C@H]2C[C@H](O)[C@@H](CO)O2)c(=O)[nH]c1=O,VCX210,PRK,4 µg/mL
COc1ccc(-c2[nH]c3nc4c(ncn4COCCO)c(=O)n3c2C)cc1,LYONS,HEL,1.92 µg/mL
Cc1cc([C@@H]2C[C@H](O)[C@@H](CO)O2)c(Cl)cc1F,G,E6SM,>400 µg/mL
O=c1c2ncn(COCCO)c2nc2[nH]c(-c3ccc(C(F)(F)F)cc3)cn12,LYONS,HEL,>16 µg/mL
O=c1[nH]c(=O)n([C@H]2C[C@H](O)[C@@H](CO)O2)cc1I,VDX192,PRK,0.4 µg/mL
CCCc1cn([C@H]2C[C@H](O)[C@@H](COP(=O)(O)O)O2)c(=O)[nH]c1=O,196,PRK,5 µg/mL
Nc1ccn(C[C@@H](CO)OCP(=O)(O)O)c(=O)n1,HS-44 (TK-),HEL,0.97 µM
OC[C@H]1O[C@@H](c2ccc(F)cc2F)C[C@@H]1O,G,E6SM,>400 µg/mL
CCCCCCCC/C=C/CCCCCCCC(=O)OCC(CO)OCn1cnc2c(=O)[nH]c(N)nc21,HS-44 (TK-),HEL,70 µM
OC[C@H]1O[C@@H](c2cc(C(F)(F)F)c(F)cc2F)C[C@@H]1O,G,E6SM,>400 µg/mL
O=c1[nH]c(=O)n([C@H]2C[C@H](O)[C@@H](CO)O2)cc1/C=C/Br,HS-44 (TK-),HEL,>150 µM
OC[C@H]1O[C@H](c2ccc(F)cc2F)C[C@@H]1O,196,E6SM,>400 µg/mL
Nc1nc2c(ncn2COCCO)c(=O)[nH]1,V72019 (acyclovir-susceptible),HFF,0.5 µg/mL
Cc1cc([C@@H]2C[C@H](O)[C@@H](CO)O2)c(F)cc1Cl,196,E6SM,>400 µg/mL
O=c1[nH]c(=O)n([C@@H]2O[C@H](CO)[C@@H](O)[C@@H]2O)cc1/C=C/Br,LYONS,PRK,20 µg/mL
CCc1cn([C@H]2C[C@H](O)[C@@H](COP(=O)(O)O)O2)c(=O)[nH]c1=O,196,PRK,0.2 µg/mL
CSCc1cn([C@H]2C[C@H](O)[C@@H](CO)O2)c(=O)[nH]c1=O,LYONS,PRK,4 µg/mL
O=c1c2ncn(COC(CO)CO)c2nc2[nH]c(-c3ccc(C(F)(F)F)cc3)cn12,G,HEL,9.6 µg/mL

The last 2 rows once more:

smiles	strain or isolate	cell line	result
CSCc1cn([C@H]2C[C@H](O)[C@@H](CO)O2)c(=O)[nH]c1=O	LYONS	PRK	4 µg/mL
O=c1c2ncn(COC(CO)CO)c2nc2[nH]c(-c3ccc(C(F)(F)F)cc3)cn12	G	HEL	9.6 µg/mL

ECn: concentration that inhibits the pathogen or its effect by n%.